Anti-infective test results gathered from many reports (values: NIAID ChemDB through PubChem).

Shared fields: whole-cell or culture tests; agent: Candida albicans

An empty or dashed field is not shown. ECn is the concentration giving n% inhibition of infection, replication or growth. A number after MIC or MFC names an inhibition level or a share of isolates. a–b is a range or a potency band. Conditions beyond the fields shown may differ between rows.

structure | endpoint | strain | method | setting | value
COc1cc(OCC(=O)c2ccccc2)cc(OC)c1OC | MIC | ATCC 10231 | broth dilution | 48 h | >125 µg/mL
CCC(C)CC(C)CCCCCCCCC(=O)N[C@H]1C[C@@H](O)[C@@H](O)NC(=O)[C@@H]2[C@@H](O)CCN2C(=O)[C@H]([C@H](O)CC(N)=O)NC(=O)[C@H]([C@H](O)[C@@H](O)c2ccc(O)cc2)NC(=O)[C@@H]2C[C@@H](O)CN2C(=O)[C@H]([C@@H](C)O)NC1=O | MIC | 40 isolates |  |  | >64 µg/mL
COc1ccc2c(Cc3ccc(C(C)(C)C)cc3)c3[n+](cc2c1OC)CCc1cc2c(cc1-3)OCO2 | MIC | ATCC28838 |  |  | 3.13 µg/mL
C(/C=C/c1ccccc1)=Nc1ccccc1Cn1ccnc1 | MIC | CDC385 |  |  | 100 µg/mL
CC(=O)N1N=C(c2ccc(F)cc2)OC1c1ccc([N+](=O)[O-])cc1 | MIC | ATCC 2091 |  |  | 250 µg/mL
C(=C\c1ccccc1)/CNc1ccc(CN2CCOCC2)cc1 | MIC | CDC385 |  |  | >100 µg/mL
C=CCc1ccc(OC)c(OC)c1 | MIC90 | 2357 | turbidity |  | 350 µg/mL
CN1CCN(Cc2ccccc2NC/C=C/c2ccccc2)CC1 | MIC | CDC385 |  |  | 100 µg/mL
Cc1ccc(/C=C2\SC(=O)N(CCC(=O)Nc3ccccc3O)C2=O)c(C)c1 | MIC |  |  |  | 12.5 µg/mL
COc1c(C)c(C)c2[nH]c3ccccc3c2c1OC | EC50 |  | resazurin |  | >50 µg/mL
COc1cccc(OCC(=O)c2ccccc2)c1 | MIC | ATCC 10231 | broth dilution | 48 h | >125 µg/mL
CCC(C)CC(C)CCCCCCCCC(=O)N[C@@H]1C[C@@H](O)[C@@H](O)NC(=O)[C@@H]2[C@@H](O)CCN2C(=O)[C@H]([C@@H](O)CCN)NC(=O)[C@H]([C@H](O)[C@@H](O)c2ccc(O)cc2)NC(=O)[C@@H]2C[C@@H](O)CN2C(=O)[C@H]([C@H](C)O)NC1=O | MIC | 40 isolates |  |  | 0.12–0.5 µg/mL
CC(=O)N1N=C(c2ccc(F)cc2)OC1c1ccccc1[N+](=O)[O-] | MIC | ATCC 2091 |  |  | 125 µg/mL
O=C(CCN1C(=O)S/C(=C\c2ccc(O)cc2O)C1=O)Nc1ccccc1O | MIC |  |  |  | 50 µg/mL
C[C@@H](NC(=O)[C@@H](N)Cc1ccccc1)[C@@H](Cc1ccccc1)B1OC2CC3CC(C3(C)C)[C@@]2(C)O1 | MIC |  |  |  | ≤500 µg/mL
O=C(NNC(=S)Nc1ccccc1)c1ccncc1 | MIC | ATCC 10231 |  |  | 50 µg/mL
Cc1cc(NC(=O)CCN2C(=O)S/C(=C\c3ccc(Cl)cc3)C2=O)ccc1Cl | MIC |  |  |  | 25 µg/mL
CC1(C)C2CC3OB(C[C@@H](Cc4ccccc4)NC(=O)[C@@H](N)CCCN=C(N)N)O[C@]3(C)C1C2 | MIC |  |  |  | ≤500 µg/mL
COc1cc(O)c2c(c1)C(=O)c1c(cc3c(c1O)-c1c(cc(C)c(C(=O)NC(CO)C(=O)O)c1O)[C@H](OC1OC(C)C(O)C(OC4OCC(O)C(O)C4O)C1O)C3O)C2=O | MIC | ATCC 24433 |  |  | 3.12 µg/mL
Nc1[nH]c(=O)ncc1F | EC50 | 5208 strains |  |  | <0.25 µg/mL
O=C(COc1ccccc1)c1ccccc1 | MIC | ATCC 10231 | broth dilution | 24 h | 125 µg/mL
C(/C=C/c1ccccc1)=Nc1ccccc1CN1CCOCC1 | MIC | CDC385 |  |  | >100 µg/mL
O=C(COc1cccc(F)c1)c1ccccc1 | MIC | ATCC 10231 | broth dilution | 24 h | >125 µg/mL
Nc1[nH]c(=O)ncc1F | MIC50 | 97 isolates |  |  | 0.125 µg/mL
CN1CCN(Cc2ccc(N=C/C=C/c3ccccc3)cc2)CC1 | MIC | CDC385 |  |  | >100 µg/mL
O=C(CCN1C(=O)S/C(=C\c2ccccc2Cl)C1=O)Nc1ccc([N+](=O)[O-])cc1 | MIC |  |  |  | 6.25 µg/mL
COc1ccc2[nH]c3c(C)c(C)c(OC)c(OC)c3c2c1 | EC50 |  | resazurin |  | >50 µg/mL
C(=C\c1ccccc1)/CNc1ccccc1Cn1ccnc1 | MIC | CDC385 |  |  | 0.75 µg/mL
CCn1c(-c2ccncc2)n[nH]c1=S | MIC | ATCC 10231 |  |  | 50 µg/mL
CC1(C)C2CC3OB(C[C@@H](Cc4ccccc4)NC(=O)[C@@H](N)Cc4ccccc4)O[C@]3(C)C1C2 | MIC |  | agar |  | ≤500 µg/mL
C=C1C(=O)OC2C1CC=C(C)C1CCC(=C)C12 | MIC | MTCC 227 | agar diffusion |  | >250 µg/mL
Cc1cc(COc2ccc(Oc3ccc(Cl)cc3)cc2)n(O)c(=O)c1 | MIC | TIMM2640 |  |  | 2 µg/mL
O=C(CCN1C(=O)S/C(=C\c2ccccc2F)C1=O)Nc1ccccc1 | MIC |  |  |  | 25 µg/mL
O=C(CSc1nnc(-c2ccncc2)n1Cc1ccccc1)c1ccccc1 | MIC | ATCC 10231 |  |  | 50 µg/mL
O=C(N/N=C/c1ccc([N+](=O)[O-])cc1)c1ccc(F)cc1 | MIC | ATCC 2091 |  |  | 125 µg/mL
C[C@@H](NC(=O)[C@@H](N)CCCCN)[C@@H](Cc1ccccc1)B1OC2CC3CC(C3(C)C)[C@@]2(C)O1 | MIC |  | agar |  | ≤500 µg/mL
O=C(N/N=C/c1ccccc1[N+](=O)[O-])c1ccc(F)cc1 | MIC | ATCC 2091 |  |  | 125 µg/mL
Cc1ncc(-c2c[nH]c3ccccc23)o1 | EC50 |  | resazurin |  | >50 µg/mL
COc1ccccc1OCC(=O)c1ccccc1 | MIC | ATCC 10231 | broth dilution | 48 h | >125 µg/mL

The last 3 rows once more:

| structure | endpoint | strain | method | setting | value |
|---|---|---|---|---|---|
| O=C(N/N=C/c1ccccc1[N+](=O)[O-])c1ccc(F)cc1 | MIC | ATCC 2091 |  |  | 125 µg/mL |
| Cc1ncc(-c2c[nH]c3ccccc23)o1 | EC50 |  | resazurin |  | >50 µg/mL |
| COc1ccccc1OCC(=O)c1ccccc1 | MIC | ATCC 10231 | broth dilution | 48 h | >125 µg/mL |